Measured values published in PubChem BioAssay AID624415 (National Center for Advancing Translational Sciences (NCATS), 2012).
The entries are a selection whose mix differs from that of the whole data set. Activity calls are given as the source filed them. No stated cut-off is given here; in the data, active means activity change below about -50%; inconclusive means between about -30% and that limit; inactive means weaker than that.

Amino acid sequences for entries named in this document (tags omitted).
UniProt Q9GZU1, whole entry: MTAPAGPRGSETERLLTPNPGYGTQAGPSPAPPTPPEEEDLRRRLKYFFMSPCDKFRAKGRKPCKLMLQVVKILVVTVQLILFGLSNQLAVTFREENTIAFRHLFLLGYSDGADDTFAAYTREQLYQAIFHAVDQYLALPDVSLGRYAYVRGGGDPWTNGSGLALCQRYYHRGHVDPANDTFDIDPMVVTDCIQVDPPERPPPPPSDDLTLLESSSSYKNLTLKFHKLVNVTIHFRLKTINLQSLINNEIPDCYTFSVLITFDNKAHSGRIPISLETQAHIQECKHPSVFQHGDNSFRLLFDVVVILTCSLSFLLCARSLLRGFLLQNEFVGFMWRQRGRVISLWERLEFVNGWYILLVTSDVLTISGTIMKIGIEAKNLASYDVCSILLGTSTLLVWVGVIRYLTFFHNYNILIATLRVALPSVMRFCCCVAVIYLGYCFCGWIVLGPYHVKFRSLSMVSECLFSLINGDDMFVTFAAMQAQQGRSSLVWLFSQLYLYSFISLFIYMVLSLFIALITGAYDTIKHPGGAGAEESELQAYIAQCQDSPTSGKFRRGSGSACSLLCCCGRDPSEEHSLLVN

Target: Mucolipin-1 (Homo sapiens) (UniProt Q9GZU1)
Experiment: qHTS for Inhibitors of the Human Mucolipin Transient Receptor Potential 1 (TRPML1);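 further: stimulus is agonist 54-4 at its EC80 concentration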
Details: TRPML1-inducible cells, Ca2+ dye fluorescence, FDSS; hits give low values; inhibition of EC80 agonist-evoked calcium signal
Description: Mutations of human Mucolipin transient receptor potential 1 (TRPML1) cause type IV mucolipidosis (ML4), a devastating neurodegenerative disease in young children. […] Currently, there is no treatment for ML4. […] Under physiological conditions, TRPMLs regulate membrane trafficking by transducing information about PI(3,5)P2 levels into changes in juxtaorganellar Ca2+, thereby triggering membrane fusion/fission events in the late endocytic pathways (endolysosomal trafficking). In addition, TRPML1 mediates release of Fe2+ from late endosomes and lysosomes, which is essential for cellular iron metabolism. Thus, impaired ion (Ca2+ and Fe2+) homeostasis underlies lysosomal dysfunction and ML4 phenotypes. In ML4 cells, the problem is twofold. First, defective Ca2+-dependent membrane trafficking due to TRPML1-deficiency causes accumulation of lipids and other bio-materials in the lysosome. The second strike comes from the lysosomal iron overload (due to impairment of TRPML1's Fe2+ conductivity), which converts the accumulated materials into the nondegradable (resistant to lysosomal degradation) lipofuscin (also called aging pigment) in the lysosome. Lipofuscin accumulation dramatically compromises the functions of lysosomes.
Niemann-Pick type C (NPC) disease is another lysosome storage disease (LSD) with severe neurodegeneration during the childhood. Currently, there is no cure for NPC. […] Thus, TRPML1 is likely to be an essential regulator of lysosome ion homeostasis. We specifically hypothesize that stimulating TRPML1's Fe2+/Ca2+ channel activity in the lysosome using synthetic agonists can alleviate neurodegeneration associated with ML4 or NPC.
To this end, a high throughput screen was developed in a miniaturized format to screen against the Molecular Libraries Small Molecule Repository (MLSMR) to find small molecules that act either as inhibitors or agonist against the TRPML1 channel.
NIH Chemical Genomics Center [NCGC]
NIH Molecular Libraries Probe Centers Network [MLPCN]
Assay Submitter (PI): Haoxing Xu, University of Michigan Ann Arbor
TRPML1-DL cells are dissociated from flasks, counted and, brought up to a density of 500,000 cells per mL of media containing a 1X Tet inducer. Using a Multidrop Combi, 3 uL of this cell solution is dispensed to each well of a 1536 TC treated, black, clear bottom hi base plate for a final cell density of 1,500 cells per well. The assay plates are incubated overnight (approximately 16 hours) at 37 degrees C and 5% CO2. Using a Multidrop Combi, 2 uL of ABD Ca8 no wash dye plus quencher is added to each well. The assay plates incubate at room temperature in the dark for 45-90 minutes. The assay plate is read on the FDSS using the following protocol: 10 second baseline read, 23 nL of compounds and controls are added using 1536 pintool, agonist read for 110 seconds, 1 uL EC80 addition (4 uM final 54-4 diluted in media), antagonist read for 110 seconds.
On the % scale 0 is the no-effect control and ±100 the full control effect.

Structure (SMILES)	activity change, negative = inhibition
COc1ccc(OP(C)(=O)Nc2ccc(SC(F)(F)F)cc2)cc1 (configuration not stated)	inactive: 3.94%
O=P1(N(CCCl)CCCl)OCCC2CCCCN21 (configuration not stated)	inactive: 2.62%
CCOC(=O)c1ccc(NP(C)(=O)Oc2ccc(F)cc2)cc1 (configuration not stated)	inactive: -10%
c1ccc(-c2nn[nH]n2)c(-c2nn[nH]n2)c1	inactive: 23.3%
Cc1ccc(NP(=O)(Oc2cccc(C)c2)Oc2cccc(C)c2)nc1	inactive: 1.17%
O=C(NC1CCS(=O)(=O)C1)NP(=S)(Oc1ccccc1)Oc1ccccc1 (configuration not stated)	inactive: 0.457%
CCNC(=S)/N=C(\N)N[N+](=O)[O-]	inactive: 17.1%
Cc1ccccc1OP(=O)(Nc1ccccn1)Oc1ccccc1C	inactive: -11%
CC(NC(=O)COC(=O)C(O)(c1ccccc1)c1ccccc1)c1ccccc1 (configuration not stated)	inactive: -12.2%
CN(C)C(=O)Oc1noc2ccccc12	inactive: 1.29%
CCCCCOc1ccc(NP(C)(=O)Oc2ccc(Cl)cc2Cl)cc1 (configuration not stated)	inactive: -16.2%
O=c1c2cc([N+](=O)[O-])ccc2[nH]c2c([N+](=O)[O-])cc([N+](=O)[O-])cc12	inactive: 23.3%
CP(=O)(Nc1ccccc1)Oc1ccc(F)cc1 (configuration not stated)	inactive: -0.588%
O=C(OC1CN2CCC1CC2)c1ccccc1 (configuration not stated)	inactive: -1.28%
CCC(=O)N1C2C3N(C(=O)CC)C1C1N(C(=O)CC)C(C(N1C(=O)CC)N3C(=O)CC)N2C(=O)CC	inactive: -9.32%
CCN(CC)CCCOC(=O)C(O)(c1ccccc1)C1CCCCC1 (configuration not stated)	inactive: -11%
COC(=O)c1cc2c(s1)N=C(c1ccccc1)N(C)P2(=O)N1CCOCC1 (configuration not stated)	inactive: -8.05%
Cc1c([N+](=O)[O-])cc([N+](=O)[O-])c(Br)c1[N+](=O)[O-]	inactive: 0.914%
CC(=O)NC(SC(=S)N(CC(C)C)CC(C)C)C(Cl)(Cl)Cl (configuration not stated)	inactive: 8.22%
Cc1ccc(OP(=O)(Nc2ccccn2)Oc2ccc(C)cc2)cc1	inactive: -9.8%
CC(C)(C)C(=O)NC(Sc1ccccc1)C(Cl)(Cl)Cl (configuration not stated)	inactive: -11.2%

Structure (SMILES)	activity change, negative = inhibition
CC(C)c1ccc(OP(C)(=O)Nc2ccc(SC(F)(F)F)cc2)cc1 (configuration not stated)	inactive: -14.1%
CCc1cc(O)c([N+](=O)[O-])c(C)c1[N+](=O)[O-]	inactive: -5.81%
CP(=O)(Nc1ccccc1F)Oc1ccccc1 (configuration not stated)	inactive: 0.96%
O=P1(Nc2nc3ccc(Cl)cc3s2)COc2ccccc2O1 (configuration not stated)	inactive: 10.7%
CCOc1ccc(C2=NCC(CBr)S2)cc1 (configuration not stated)	inactive: -4.02%
CC(=O)Nc1ccc([As](=O)(O)O)c(O)c1	inactive: 5.62%
CC(=O)Nc1ccc(Oc2c([N+](=O)[O-])cc([N+](=O)[O-])cc2[N+](=O)[O-])cc1	inactive: 3.9%
O=C(OCCN1CCN(CCOCc2ccccc2)CC1)C(O)(c1ccccc1)c1ccccc1	inactive: 12.3%
Cc1ccccc1CN(C)C(=O)COC(=O)C(O)(c1ccccc1)c1ccccc1	inactive: -3.59%
C[C@@H]1C=CCP(=O)(Oc2ccccc2)O1 (some centres not stated)	inactive: 4.64%
C[C@H]1OP(=O)(Oc2ccccc2)C[C@@H]2O[C@@H]21 (some centres not stated)	inactive: -0.199%
N#C/C(=C\c1ccc(N(CCBr)CCBr)cc1)C(N)=O	inactive: 13.4%
CC(=O)c1ccc(N2CC2c2ccncc2)cc1 (configuration not stated)	inactive: 26.8%
COC(=O)C1(C)COP(=O)(NCc2ccccc2)OC1 (configuration not stated)	inactive: 6.7%
c1nnnn1CCn1cnnn1	inactive: 10.9%
CCOP(C)(=S)SCC(=O)NC(C)(CC)C(=O)O (configuration not stated)	inactive: 10.2%
O=P(Nc1nccs1)(c1ccccc1)c1ccccc1	inactive: -13.8%
CC(C)C(=O)NC(Sc1ccccc1)C(Cl)(Cl)Cl (configuration not stated)	inactive: 4.86%
CP(=O)(Nc1ccc(SC(F)(F)F)cc1)Oc1ccc(F)cc1 (configuration not stated)	inactive: -7.12%
Cc1ccccc1NP(C)(=O)Nc1ccccc1C	inactive: 1.36%
CP(=O)(Nc1ccc2c(c1)OCCO2)Oc1ccccc1 (configuration not stated)	inactive: 2.99%

Structure (SMILES)	activity change, negative = inhibition
COc1ccc(NP(C)(=O)Oc2ccccc2OC)cc1 (configuration not stated)	inactive: 36%
O=P(Nc1nc2ccccc2s1)(c1ccccc1)c1ccccc1	inactive: 26.4%
CN(C)CCOC(=O)C(O)(c1ccccc1)C1CCCCC1 (configuration not stated)	inactive: 0.48%
C[C@H]1OP(=O)(Oc2ccccc2)[C@H](O)[C@H](O)[C@H]1N=[N+]=[N-] (some centres not stated)	inactive: 12.5%
CN(C)C1(CNC(=O)c2ccc(Cl)c(S(N)(=O)=O)c2)CCCCC1	inactive: 2.12%
O=P(Nc1ccccn1)(c1ccc(Br)cc1)c1ccc(Br)cc1	inactive: 19%
COc1ccc(OP(C)(=O)Nc2cccc(Br)c2)cc1 (configuration not stated)	inactive: 2.43%
COc1ccc(N)c([N+](=O)[O-])c1[N+](=O)[O-]	inactive: -0.171%
O=C(OC1CN2CCC1CC2)c1cccc(Cl)c1 (configuration not stated)	inactive: 6.66%
Cc1c(C(c2ccc3c(c2)OCO3)c2c(C)n(C)n(-c3ccccc3)c2=O)c(=O)n(-c2ccccc2)n1C.O=[N+]([O-])c1cc([N+](=O)[O-])c(O)c([N+](=O)[O-])c1	inactive: -8.92%
Nc1ccc([As](=O)(O)c2ccc([N+](=O)[O-])cc2)cc1	inactive: -3.42%
C(Cc1nn[nH]n1)Cc1nn[nH]n1	inactive: 2.17%
O=[As](O)(c1ccccc1)c1ccc(O)cc1	inactive: -11.2%
Cc1cc(-c2cccc3ccccc23)c(C)cn1.O=[N+]([O-])c1cc([N+](=O)[O-])c(O)c([N+](=O)[O-])c1	inactive: 22.9%
CC(=O)NC(SC(=S)N(C)C)C(Cl)(Cl)Cl (configuration not stated)	inactive: 36.1%
O=[N+]([O-])c1ccc(OP2(=O)COCCO2)cc1 (configuration not stated)	inactive: 7.18%
CP(=O)(OC12CC3CC(CC(C3)C1)C2)OC12CC3CC(CC(C3)C1)C2	inactive: 5.81%
CCOC(=O)c1ccc(NP(C)(=O)Oc2ccc(Cl)cc2)cc1 (configuration not stated)	inactive: -6.25%
O=C(Nc1cc([As](=O)(O)O)ccc1O)c1ccccc1	inactive: 8.43%
O=P1(N(CCCl)CCCl)OCCCS1 (configuration not stated)	inactive: 19.3%
